According to patent publication US20080145339:
For at least one entry, the source does not settle the construct or the ends of the probe.

Molecular target: AAV Rep78 wild-type (adeno-associated virus 2) (UniProt Q89268)
Assay: EMSA
Conditions: purified recombinant protein, protein details: MBP fusion (pMALc2, amylose purified), label: 32P

| Sequence | binding result (strong target, variant of HPV-16 p97 nt 14-106, only the site is given) | binding result (10 mM MgCl2, poly(dI-dC), weaker than TR in competition (FIG. 8)) |
| --- | --- | --- |
| ATGTATAAAACTAAGGGCGTAACCGAAATCGGTTGAACCGAAA (double strand) [HPV-16 p97 nt 14-56] | binds | – |
| ATGTATAAAACTAAGGGCGTAACCGAAATCGGTTGAACCGAAACCGGTTAGTATAAAAGCAGACATTTTATGCACCAAAAGAGAACTGCAATG (double strand) [HPV-16 p97 nt 14-106] | – | binds |
